Experimental data reported in PubChem BioAssay AID2842 (Southern Research Institute, 2010).
Only a part is listed here, and it is no random draw. Active and inactive are the calls of the source. No rule for the calls is given here.

Assay: Mycobacterium tuberculosis H37Rv growth inhibition, putative kinase inhibitor library, confirmatory dose response (AID 2842);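 also: bacteria incubated one week before Alamar blue readout; 0% = bacteria only wells and 100% = bacteria with high antibiotic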
Conditions: M. tuberculosis H37Rv growth inhibition; stronger effect = higher value

Question: For `Cc1n[n+]2c([nH]c1=O)SCC(Br)C2c1ccccc1` (configuration not stated), which inhibition is on record?
Answer: The inhibition was inactive: -3.77%.

Question: Which inhibition does the source give for `CCOc1ccc(Nc2c([N+](=O)[O-])cc(C(F)(F)F)cc2[N+](=O)[O-])c([N+](=O)[O-])c1` here?
Answer: Its inhibition is inactive: -15.1%.
